Screening data, single-dose tests

From ChEMBL document CHEMBL3988442, “University of Dundee, Small-Polar-MMV Screening Library” (2021).

The filed quantity is “Percent Effect” (%). The controls that fix the scale are not given in the record; negative values are as filed. This is part of a subset picked to be rich in strong results.

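Whole-cell growth test on Mycobacterium tuberculosis, read after 3 days in glucose-containing 7H9 medium; the read-out is not stated. Tested at 500 µM. The record gives no direction; compounds that gave an IC50 in retests scored well above the rest, so higher reads as more growth inhibition. About 18,000 compounds were tested under these conditions; 7.9% (about 1,400) showed 50% or more at least once.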

structure: CN1CCCC(N(C)S(=O)(=O)Cc2cccc(F)c2)C1 (centres undefined)
percent effect: 14.42

structure: CC1CN(C(=O)[C@@H](N)Cc2ccccc2)CC(C)(C)O1 (some centres undefined)
percent effect: 9.876

structure: COc1cccc(Nc2nccc(=O)[nH]2)c1
percent effect: 3.264

structure: CC1(C)CCC(CN)O1 (centres undefined)
percent effect: 6.45

structure: CC(Sc1ccccc1)C(=O)NCC(=O)N1CCCC1 (centres undefined)
percent effect: 9.433

structure: Cc1n[nH]c(SCc2nc(-c3ccccn3)no2)n1
percent effect: 15.59

structure: COCC(C)(N)c1ccccc1 (centres undefined)
percent effect: -3.394

structure: COC(=O)[C@@H]1C[C@@H](O)CN1CC(=O)N1CCCCCC1
percent effect: -3.892

structure: CC(C)CCNC(=O)Nc1ccc(S(C)(=O)=O)cc1
percent effect: 65.79

structure: CN(Cc1cc(F)cc2cccnc12)S(C)(=O)=O
percent effect: 11.97

structure: Cc1ccc(CC(=O)NC2(C)CCS(=O)(=O)C2)cc1 (centres undefined)
percent effect: 23.09

structure: COc1ccc(C)cc1CN1CCN(S(N)(=O)=O)CC1
percent effect: 79.12

structure: COc1ccc(OC2CCNCC2)nc1
percent effect: -2.165

structure: CC(C)CS(=O)(=O)NCc1ccc2c(c1)OCO2
percent effect: 72.54

structure: CCN(Cc1c(OC)ccc(F)c1F)[C@H]1COC[C@@H]1O
percent effect: 17.86

structure: CC(C)O[C@@H]1CCNC1
percent effect: -6.578

structure: N[C@@H]1CCN(C(=O)CCSCc2ccccc2)C[C@H]1O
percent effect: 28.64

structure: CCCNC(=O)c1ccc(C(=O)OC)cc1
percent effect: 53.9

structure: c1cncc(N2CCCCC2)c1
percent effect: -0.7206

structure: CC1CCN(C(=O)c2cnn(-c3cccnc3)c2)CC1
percent effect: 73.84

structure: CC(=O)Cn1cc(S(=O)(=O)N(C)C)ccc1=O
percent effect: 4.608

structure: O=C1Nc2ccccc2C12CCNC2 (centres undefined)
percent effect: -5.134

structure: CC(C)n1nccc1[C@H]1OCC[C@@H]1N
percent effect: 15.77

structure: O=C(CSCc1cccs1)NC1CC1
percent effect: 19.94

structure: CCSC(C)C(=O)N(C)CCc1ccncc1 (centres undefined)
percent effect: 21.7

structure: CC(C)c1ccsc1C(=O)NCCCC(N)=O
percent effect: 5.807

structure: CCCc1ccc(CN2CCCN(C(C)=O)CC2)o1
percent effect: 23.44

structure: COC1(CNC(=O)c2cc(Cl)ccn2)CCC1
percent effect: 47.68

structure: CC(C)(NC(=O)c1cc2ccc(Br)cc2[nH]1)C(N)=O
percent effect: 41.43

structure: CCS(=O)(=O)N1CC(F)(F)C[C@H]1c1nc(C)no1
percent effect: 7.38

structure: Cc1ccccc1CC(=O)N1CCNCC1
percent effect: 17.44

structure: CC(C)(C)NC(=O)N1CCCC(CC(N)=O)C1 (centres undefined)
percent effect: -5.757

structure: CC(=O)N1CCN(CCSc2ccccc2)CC(O)C1 (centres undefined)
percent effect: 32.26

structure: Cc1cc(C2CCCN2C(=O)CCS(C)(=O)=O)on1 (centres undefined)
percent effect: 9.888

structure: O=C1CCN(Cc2cccs2)CC1
percent effect: 40.37

structure: Cn1ncc2c(NCC(=O)N3CCCC3)ncnc21
percent effect: 5.754

structure: CN(C)CCNC(=O)c1cc(Br)c[nH]1
percent effect: 11.37

Repeated from the top, 4 entries:

Result for CN1CCCC(N(C)S(=O)(=O)Cc2cccc(F)c2)C1 (centres undefined) was 14.42%.
Result for CC1CN(C(=O)[C@@H](N)Cc2ccccc2)CC(C)(C)O1 (some centres undefined) was 9.876%.
Result for COc1cccc(Nc2nccc(=O)[nH]2)c1 was 3.264%.
Result for CC1(C)CCC(CN)O1 (centres undefined) was 6.45%.